Here are results for one substance from patent US5064946A, “Therapeutic nucleosides” (priority 1987, dated 1991).

One test relates to HIV. Briefly: AZT/Interferon combinations vs. HIV in vitro in PBMC: reverse transcriptase (RT) activity of supernatants. Type of test: cell-based. The conditions noted are these: AZT 0; for mean reverse transcriptase value: Experiment 2-Day 10.
The test system of a further test is HIV p24. Briefly: AZT/Interferon combinations vs. HIV in vitro in PBMC: HIV p24 antigen by radioimmunoassay. Type of test: cell-based. The following applies: Experiment 4-Day 14, AZT 0.

“rIFNαA: recombinant α interferon (rIFNαA)”: the “mean reverse transcriptase value” with HIV (rIFNαA 8 U/ml) was determined as 173 cpm/10^6 cells × 10^3; in the test on HIV (rIFNαA 16 U/ml), 150 cpm/10^6 cells × 10^3; in the test with HIV (rIFNαA 32 U/ml) it was 193 cpm/10^6 cells × 10^3; in the test with HIV (rIFNαA 64 U/ml) it was 169 cpm/10^6 cells × 10^3; in the test with HIV (rIFNαA 128 U/ml), 151 cpm/10^6 cells × 10^3. In addition, the “mean RT value” in the test on HIV (Experiment 3-Day 13, rIFNαA 16 U/ml) turned out to be 143 cpm/10^6 cells × 10^3; with HIV (Experiment 3-Day 13, rIFNαA 32 U/ml) it was 117 cpm/10^6 cells × 10^3; with HIV (Experiment 3-Day 13, rIFNαA 64 U/ml) it was 117 cpm/10^6 cells × 10^3; in the test on HIV (Experiment 3-Day 13, rIFNαA 128 U/ml) it was 130 cpm/10^6 cells × 10^3; with HIV (Experiment 4-Day 11, rIFNαA 32 U/ml) it was 5 cpm/10^6 cells × 10^3; in the test on HIV (Experiment 4-Day 11, rIFNαA 64 U/ml), 4 cpm/10^6 cells × 10^3. For the same substance, in the test with HIV (Experiment 4-Day 11, rIFNαA 128 U/ml), the “mean RT value” is recorded as 2 cpm/10^6 cells × 10^3. Also, the “HIV p24” value with HIV p24 (IFNαA 32 U/ml) is 100-200 ng protein/ml; in the test with HIV p24 (IFNαA 64 U/ml) it was 50-100 ng protein/ml; in the test with HIV p24 (IFNαA 128 U/ml), 25-30 ng protein/ml.
